Target: V. vulnificus LuxO-C (Vibrio vulnificus, UniProt Q8CWJ5)
Experiment: NADH-coupled ATPase assay, fit to one-inhibitor-per-oligomer model
Format: biochemical
Details: competitive with ATP; 100 μM LuxO-C, 2 mM ATP, pH 7.4, 23°C, 4% DMSO; K is affinity relative to ATP (dimensionless ratio)

Protein sequences, listed by entry. Tags and fused reporters are not part of them. Residues count along the entry.
UniProt Q8CWJ5, 132-378 limits assumed: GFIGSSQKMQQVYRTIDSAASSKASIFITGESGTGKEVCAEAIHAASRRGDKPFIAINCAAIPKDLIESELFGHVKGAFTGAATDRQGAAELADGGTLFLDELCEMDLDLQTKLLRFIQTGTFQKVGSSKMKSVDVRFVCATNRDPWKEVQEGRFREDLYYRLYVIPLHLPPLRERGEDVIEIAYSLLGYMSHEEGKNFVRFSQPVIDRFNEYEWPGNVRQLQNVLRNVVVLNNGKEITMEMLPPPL

## CC(C)(C)COC(=O)CNc1n[nH]c(=O)nc1S
  K (Kd^ATP / Kd^inhibitor): 268 ± 186

From publication PMC4878744, “Structure, Regulation, and Inhibition of the Quorum-Sensing Signal Integrator LuxO” (PLoS Biology, 2016)
